Pooled drug test results. Numbers come from NIAID ChemDB, via PubChem.

Shared fields: growth or infection tests; organism: Herpes simplex virus 2; cell line: VERO; read-out: EC50

Blank or dashed fields: not listed here. a–b is a range or a potency band. Conditions beyond the fields shown may differ between rows. ECn is the concentration giving n% inhibition of infection, replication or growth.

smiles	strain	method	result
Nc1nc(=O)n([C@@H]2O[C@H](CO)[C@@H](O)[C@@H]2F)cc1I	MS	plaque count	1.3 µM
Nc1nc2c(ncn2CC[C@@H](O)CO)c(=O)[nH]1	B4327	plaque count	11 µM
Nc1nc2c(ncn2[C@@H]2C=C[C@H](CO)CC2)c(=O)[nH]1		cytopathic effect	0.1–1 µM
O=c1[nH]cnc2c1ncn2C[C@H]1C[C@H]1CO			>50 µM
Cc1cn([C@@H]2O[C@H](CO)[C@@H](O)[C@@H]2F)c(=O)[nH]c1=O	MS	plaque count	2.1 µM
Nc1ccn(C[C@H]2C[C@H]2CO)c(=O)n1			>50 µM
Nc1ncnc2c1ncn2[C@@H]1C[C@H](CO)[C@@H](O)[C@@H]1O	G	plaque count	50 µM
Nc1nc2c(ncn2[C@@H]2C[C@H](CO)[C@H]2CO)c(=O)[nH]1		cytopathic effect	0.01–0.1 µM
O=c1[nH]c(=O)n([C@@H]2O[C@H](CO)[C@@H](O)[C@@H]2F)cc1I	G-FIAC-C1	plaque count	9 µM
Nc1nc2c(ncn2CCCC(CO)CO)c(=O)[nH]1	72	plaque count	3.6 µM
Nc1nc2c(ncn2COC(CO)CO)c(=O)[nH]1		cytopathic effect	0.01–0.1 µM
O=c1[nH]cnc2c1ncn2C[C@H]1C[C@H]1[C@H](O)CO			>50 µM
Nc1nc2c(ncn2CC[C@@H](O)CO)c(=O)[nH]1	91075 (acyclovir-resistant)	plaque count	>250 µM
Nc1nc2c(ncn2COCCO)c(=O)[nH]1	196	XTT	1.2 µM
Nc1ncnc2c1ncn2[C@@H]1O[C@H](CO)[C@@H](O)[C@@H]1O	MS	plaque count	10.6 µM
Nc1nc2c(ncn2COCCO)c(=O)[nH]1	B4327	plaque count	0.5 µM
Cn1cc(C(=O)NCc2ccc(Cl)cc2)c(=O)c2cc(/C=C\CO)cc(F)c21	MS-M1	plaque count	>20 µM
O=c1ccn([C@@H]2O[C@H](CO)[C@@H](O)[C@@H]2F)c(=O)[nH]1	G-FIAU-C1	plaque count	>200 µM
O=c1[nH]c(=O)n([C@H]2C[C@H](O)[C@@H](CO)O2)cc1/C=C/Br	MS-M1	plaque count	5.9 µM
CCc1cn([C@H]2C[C@H](O)[C@@H](CO)O2)c(=O)[nH]c1=O	G-FIAC-C1	plaque count	257 µM
Nc1ncnc2c1ncn2C[C@H]1C[C@H]1[C@H](O)CO			>50 µM

Again, the opening 3 rows:

smiles	strain	method	result
Nc1nc(=O)n([C@@H]2O[C@H](CO)[C@@H](O)[C@@H]2F)cc1I	MS	plaque count	1.3 µM
Nc1nc2c(ncn2CC[C@@H](O)CO)c(=O)[nH]1	B4327	plaque count	11 µM
Nc1nc2c(ncn2[C@@H]2C=C[C@H](CO)CC2)c(=O)[nH]1		cytopathic effect	0.1–1 µM